Measured values from several laboratories, pooled; numbers as filed in NIAID ChemDB.

All rows: whole-cell or culture tests; organism: Aspergillus flavus

Lines come from different laboratories, so protocols vary. An empty or dashed field is not shown. MIC50, MIC90 and the like: level of inhibition, or share of isolates inhibited.

| smiles | strain or isolate | method | endpoint | result |
|---|---|---|---|---|
| Nc1ncccc1-c1cc(Cc2ccc(COc3ccccn3)cc2)no1 | IFM50915 | broth dilution | MIC50 | 0.016 µg/mL |
| CC(C)CC(O)C(=O)O | MRCM 23135 | broth dilution / visual reading | MFC100 | >72000 µg/mL |
| c1coc(-c2n[nH]c(COc3ncnc4ccccc34)n2)c1 | MTCC 277 |  | MIC100 | 6.25 µg/mL |
| C[C@@H]1C/C=C/C=C/C=C/C=C/[C@H](OC2O[C@H](C)[C@@H](O)[C@H](N)[C@@H]2O)CC2O[C@](O)(C[C@@H](O)C[C@H]3O[C@@H]3/C=C/C(=O)O1)C[C@H](O)[C@H]2C(=O)O | Species complex |  | MIC90 | 32 µg/mL |
| Clc1ccc(C(c2ccccc2)n2cnc3ccccc32)cc1 |  | broth dilution | MFC | >256 µg/mL |
| CC(C)C[C@H](N)C(=O)O | MRCM 24832 | broth dilution | MFC100 | >18000 µg/mL |
| O=C(c1ccccc1)C(c1ccccc1)n1cncn1 |  | broth dilution | MFC | 256 µg/mL |
| Cc1nc(OCc2nc(-c3ccc(Br)cc3)n[nH]2)c2ccccc2n1 | MTCC 277 |  | MIC100 | 25 µg/mL |
| c1ccc(C(c2ccccc2)n2nnc3ccccc32)cc1 |  | broth dilution | MFC | >256 µg/mL |
| Oc1ccc(-c2n[nH]c(COc3nc(C(F)(F)F)nc4ccccc34)n2)cc1 | MTCC 277 |  | MIC100 | 50 µg/mL |
| C[C@@H](c1ncncc1F)[C@](O)(Cn1cncn1)c1ccc(F)cc1F |  | broth dilution | MIC50 | 2 µg/mL |
| COc1ccc(-c2n[nH]c(COc3nc(C(F)(F)F)nc4ccccc34)n2)cc1 | MTCC 277 |  | MIC100 | 25 µg/mL |
| CCCCCCCCCCCCOC(=O)[C@]1(O)C[C@@H](O)[C@@H](O)[C@H](OC(=O)/C=C/c2ccc(O)c(O)c2)C1 | AMP 9 | absorbance | MIC50 | 1400 µM |
| Cc1nc(OCc2nc(-c3ccc(Cl)cc3)n[nH]2)c2ccccc2n1 | MTCC 277 |  | MIC100 | 50 µg/mL |
| c1ccc(C(c2ccccc2)n2cncn2)cc1 |  | broth dilution | MFC | 64 µg/mL |

The last 2 rows once more:

smiles,strain or isolate,method,endpoint,result
Cc1nc(OCc2nc(-c3ccc(Cl)cc3)n[nH]2)c2ccccc2n1,MTCC 277,,MIC100,50 µg/mL
c1ccc(C(c2ccccc2)n2cncn2)cc1,,broth dilution,MFC,64 µg/mL